Earlier results on one compound are cited in article PMC12154458, “High-Throughput Screens of Repurposing Hub and DOS Chemical Libraries Reveal Compounds with Novel and Potent Inhibitory Activity Against the Essential Non-Neuronal Acetylcholinesterase of Schistosoma mansoni (SmTAChE)” (International Journal of Molecular Sciences, 2025).

Sequences of proteins named here, by UniProt entry; tags and fusion partners are left off. Residues count along the entry.
UniProt A0A3Q0KMM5, 27-661 limits assumed: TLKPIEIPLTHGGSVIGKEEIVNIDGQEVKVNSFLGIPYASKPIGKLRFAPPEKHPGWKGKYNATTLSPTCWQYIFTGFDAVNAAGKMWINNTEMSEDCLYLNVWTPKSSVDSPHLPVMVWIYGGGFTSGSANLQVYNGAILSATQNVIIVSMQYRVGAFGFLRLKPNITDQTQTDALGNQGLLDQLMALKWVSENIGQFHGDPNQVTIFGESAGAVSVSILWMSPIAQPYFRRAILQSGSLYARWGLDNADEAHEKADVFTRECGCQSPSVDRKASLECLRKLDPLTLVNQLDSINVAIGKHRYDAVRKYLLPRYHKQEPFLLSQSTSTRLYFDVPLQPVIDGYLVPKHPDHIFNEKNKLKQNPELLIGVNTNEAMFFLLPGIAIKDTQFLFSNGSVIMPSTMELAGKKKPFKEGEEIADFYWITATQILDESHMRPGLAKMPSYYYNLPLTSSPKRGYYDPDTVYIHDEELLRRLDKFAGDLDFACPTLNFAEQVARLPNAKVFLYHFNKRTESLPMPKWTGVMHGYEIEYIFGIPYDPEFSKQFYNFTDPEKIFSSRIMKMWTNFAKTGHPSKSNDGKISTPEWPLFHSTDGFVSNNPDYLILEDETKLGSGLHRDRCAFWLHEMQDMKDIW

What is called IC50 is the concentration that gives 50% inhibition.

The target in the series is rSmTAChE (Schistosoma mansoni, UniProt A0A3Q0KMM5). Particulars: read-out: IC50 rSmTAChE; preliminary screening of Broad Institute Validation Library; cited from earlier work.

`COc1cc(CNCCc2ccccc2F)ccc1OCC(=O)N1CCCCC1`: the IC50 was 740 nM.
